Positions count from the first letter of the chain named.
Assays:
Assay in all cases: cell-based or functional assay
[1] = biological target: HIV-1 envelope glycoprotein gp120 of virus CHO77 (HIV-1 subtype B, virus CHO77)
[2] = biological target: HIV-1 envelope glycoprotein gp120 of virus 92US657 (HIV-1 subtype B, isolate 92US657)
[3] = biological target: HIV-1 envelope glycoprotein gp120 of virus BaL (HIV-1 BaL (lab adapted strain, subtype …))
[4] = biological target: HIV-1 envelope glycoprotein gp120 of virus 8320 (HIV-1 subtype B, virus 8320)
[5] = biological target: HIV-1 envelope glycoprotein (Env, gp120) of virus VS052 (HIV-1)
[6] = biological target: HIV-1 envelope glycoprotein (Env, gp120) of virus 92US727 (HIV-1)
[7] = biological target: HIV-1 envelope glycoprotein (Env, gp120) of virus VS030 (HIV-1)
[8] = biological target: HIV-1 envelope glycoprotein (Env, gp120) of virus 302076 (HIV-1)
[9] = biological target: HIV-1 envelope glycoprotein (Env, gp120) of virus THRO (HIV-1)
[10] = biological target: HIV-1 envelope glycoprotein (Env, gp120) of virus VS046 (HIV-1)
[11] = biological target: HIV-1 envelope glycoprotein (Env, gp120) of virus 1413 (HIV-1)
[12] = biological target: HIV-1 envelope glycoprotein (Env, gp120) of virus 1489 (HIV-1)
[13] = biological target: HIV-1 envelope glycoprotein (Env, gp120) of virus VS043 (HIV-1)
[14] = biological target: HIV-1 envelope glycoprotein (Env, gp120) of virus CHO77 (HIV-1)
[15] = biological target: HIV-1 envelope glycoprotein (Env, gp120) of virus 8117 (HIV-1)
[16] = biological target: HIV-1 envelope glycoprotein (Env, gp120) of virus VS026 (HIV-1)
[17] = biological target: HIV-1 envelope glycoprotein (Env, gp120) of virus 7595 (HIV-1)
[18] = biological target: HIV-1 envelope glycoprotein (Env, gp120) of virus 1003 (HIV-1)
[19] = biological target: HIV-1 envelope glycoprotein (Env, gp120) of virus 92US712 (HIV-1)
[20] = biological target: HIV-1 envelope glycoprotein (Env, gp120) of virus VS044 (HIV-1)
[21] = biological target: HIV-1 envelope glycoprotein (Env, gp120) of virus 1012 (HIV-1)
[22] = biological target: HIV-1 envelope glycoprotein (Env, gp120) of virus 7576 (HIV-1)
[23] = biological target: HIV-1 envelope glycoprotein (Env, gp120) of virus 7141 (HIV-1)
[24] = biological target: HIV-1 envelope glycoprotein (Env, gp120) of virus 8106 (HIV-1)
[25] = biological target: HIV-1 envelope glycoprotein (Env, gp120) of virus VS001 (HIV-1)
[26] = biological target: HIV-1 envelope glycoprotein (Env, gp120) of virus VS042 (HIV-1)
[27] = biological target: HIV-1 envelope glycoprotein (Env, gp120) of virus 7015 (HIV-1)
[28] = biological target: HIV-1 envelope glycoprotein (Env, gp120) of virus 8320 (HIV-1)
[29] = biological target: HIV-1 envelope glycoprotein (Env, gp120) of virus 92US657 (HIV-1)
[30] = biological target: HIV-1 envelope glycoprotein (Env, gp120) of virus VS004 (HIV-1)
[31] = biological target: HIV-1 envelope glycoprotein (Env, gp120) of virus 7051 (HIV-1)
[32] = biological target: HIV-1 envelope glycoprotein (Env, gp120) of virus 7467 (HIV-1)
[33] = biological target: HIV-1 envelope glycoprotein (Env, gp120) of virus 8176 (HIV-1)
[34] = biological target: HIV-1 envelope glycoprotein (Env, gp120) of virus 8318 (HIV-1)
[35] = biological target: HIV-1 envelope glycoprotein (Env, gp120) of virus 7552 (HIV-1)
[36] = biological target: HIV-1 envelope glycoprotein (Env, gp120) of virus VS017 (HIV-1)
[37] = biological target: HIV-1 envelope glycoprotein (Env, gp120) of virus REJO (HIV-1)
[38] = biological target: HIV-1 envelope glycoprotein (Env, gp120) of virus 8110 (HIV-1)
[39] = biological target: HIV-1 envelope glycoprotein (Env, gp120) of virus 92HT593 (HIV-1)
[40] = biological target: HIV-1 envelope glycoprotein (Env, gp120) of virus 8134 (HIV-1)
[41] = biological target: HIV-1 envelope glycoprotein (Env, gp120) of virus VS039 (HIV-1)
[42] = biological target: HIV-1 envelope glycoprotein (Env, gp120) of virus 7103 (HIV-1)
[43] = biological target: HIV-1 envelope glycoprotein (Env, gp120) of virus VS049 (HIV-1)

B1: Antibody 1.33.32-1 (antibody, human IgG1, kappa)
heavy: QVQLVQSGAEVKKPGASVRVSCKASGYNIRDYFIHWWRQAPGQGLQWVGWINPKTGQPNNPRQFQGRVTLTRHASWDFDTFSFYMDLKALRSDDTATYFCARQRSDYWDFDVWGSGTQVTVSSASTKGPSVFPLAPSSKSTSGGTAALGCLVKDYFPEPVTVSWNSGALTSGVHTFPAVLQSSGLYSLSSVVTVPSSSLGTQTYICNVNHKPSNTKVDKKVEPKSCDKTHTCPPCPAPELLAGPDVFLFPPKPKDTLMISRTPEVTCVVVDVSHEDPEVKFNWYVDGVEVHNAKTKPREEQYNSTYRVVSVLTVLHQDWLNGKEYKCKVSNKALPLPEEKTISKAKGQPREPQVYTLPPSREEMTKNQVSLTCLVKGFYPSDIAVEWESNGQPENNYKTTPPVLDSDGSFFLYSKLTVDKSRWQQGNVFSCSVLHEALHSHYTQKSLSLSPGK
light: not shown
[1]
  Virus Neutralization Potency (IC50): 0.08 µg/mL
[2]
  Virus Neutralization Potency (IC50): 0.83 µg/mL
[3]
  Virus Neutralization Potency (IC50): 0.09 µg/mL
[4]
  Virus Neutralization Potency (IC50): 0.35 µg/mL

B2: Antibody 1.34.32-1 (antibody, human IgG1, kappa)
heavy: B1 heavy with T97V, S105T
light: not shown
[1]
  Virus Neutralization Potency (IC50): 0.11 µg/mL
[2]
  Virus Neutralization Potency (IC50): 1.47 µg/mL
[3]
  Virus Neutralization Potency (IC50): 0.31 µg/mL
[4]
  Virus Neutralization Potency (IC50): 0.54 µg/mL

B3: Antibody 2.4.1-1 (antibody, human IgG1, kappa)
heavy: QVHLSQSGAAVTKPGASVRVSCEASGYKIRDHFIHWWRQAPGQGLQWVGWINPKTGQPNNPRQFQGRVSLTRHASFDFDTFSFYMDLKAVRSDDTAIYFCARQRSDYWDFDVWGSGTQVTVSSASTKGPSVFPLAPSSKSTSGGTAALGCLVKDYFPEPVTVSWNSGALTSGVHTFPAVLQSSGLYSLSSVVTVPSSSLGTQTYICNVNHKPSNTKVDKKVEPKSCDKTHTCPPCPAPELLAGPDVFLFPPKPKDTLMISRTPEVTCVVVDVSHEDPEVKFNWYVDGVEVHNAKTKPREEQYNSTYRVVSVLTVLHQDWLNGKEYKCKVSNKALPLPEEKTISKAKGQPREPQVYTLPPSREEMTKNQVSLTCLVKGFYPSDIAVEWESNGQPENNYKTTPPVLDSDGSFFLYSKLTVDKSRWQQGNVFSCSVLHEALHSHYTQKSLSLSPGK
light: not shown
[5]
  Virus Neutralization Potency: 0.5 µg/mL
[6]
  Virus Neutralization Potency: 13.7 µg/mL
[7]
  Virus Neutralization Potency: 5.2 µg/mL
[8]
  Virus Neutralization Potency: 0.13 µg/mL
[9]
  Virus Neutralization Potency: 4.17 µg/mL
[10]
  Virus Neutralization Potency: 0.05 µg/mL
[11]
  Virus Neutralization Potency: 5.04 µg/mL
[12]
  Virus Neutralization Potency: 0.16 µg/mL
[13]
  Virus Neutralization Potency: 1.16 µg/mL
[14]
  Virus Neutralization Potency: 0.08 µg/mL
[15]
  Virus Neutralization Potency: 2.58 µg/mL
[16]
  Virus Neutralization Potency: 0.27 µg/mL
[17]
  Virus Neutralization Potency: 5.06 µg/mL
[18]
  Virus Neutralization Potency: 3.62 µg/mL
[19]
  Virus Neutralization Potency: 0.07 µg/mL
[20]
  Virus Neutralization Potency: 0.25 µg/mL
[21]
  Virus Neutralization Potency: 3.38 µg/mL
[22]
  Virus Neutralization Potency: 1.4 µg/mL
[23]
  Virus Neutralization Potency: 4.82 µg/mL
[24]
  Virus Neutralization Potency: 4.25 µg/mL
[25]
  Virus Neutralization Potency: 0.18 µg/mL
[26]
  Virus Neutralization Potency: 2 µg/mL
[27]
  Virus Neutralization Potency: 0.54 µg/mL
[28]
  Virus Neutralization Potency: 6.69 µg/mL
[29]
  Virus Neutralization Potency: 0.34 µg/mL
[30]
  Virus Neutralization Potency: 6.08 µg/mL
[31]
  Virus Neutralization Potency: 1.18 µg/mL
[32]
  Virus Neutralization Potency: 0.05 µg/mL
[33]
  Virus Neutralization Potency: 0.33 µg/mL
[34]
  Virus Neutralization Potency: 0.4 µg/mL
[35]
  Virus Neutralization Potency: 37 µg/mL
[36]
  Virus Neutralization Potency: 3.91 µg/mL
[37]
  Virus Neutralization Potency: 0.02 µg/mL
[38]
  Virus Neutralization Potency: 5.14 µg/mL
[39]
  Virus Neutralization Potency: 0.37 µg/mL
[40]
  Virus Neutralization Potency: 1.05 µg/mL
[41]
  Virus Neutralization Potency: 0.11 µg/mL
[42]
  Virus Neutralization Potency: 1.31 µg/mL
[43]
  Virus Neutralization Potency: > 100 µg/mL

B4: Antibody 2.3.1-1 (antibody, human IgG1, kappa)
heavy: B3 heavy with K28N, H32Y, F76W
light: not shown
[5]
  Virus Neutralization Potency: 0.33 µg/mL
[6]
  Virus Neutralization Potency: 2.02 µg/mL
[7]
  Virus Neutralization Potency: 6.38 µg/mL
[8]
  Virus Neutralization Potency: 0.1 µg/mL
[9]
  Virus Neutralization Potency: 3.96 µg/mL
[10]
  Virus Neutralization Potency: 0.03 µg/mL
[11]
  Virus Neutralization Potency: 5.28 µg/mL
[12]
  Virus Neutralization Potency: 0.18 µg/mL
[13]
  Virus Neutralization Potency: 0.97 µg/mL
[14]
  Virus Neutralization Potency: 0.03 µg/mL
[15]
  Virus Neutralization Potency: 2.08 µg/mL
[16]
  Virus Neutralization Potency: 0.13 µg/mL
[17]
  Virus Neutralization Potency: 8.5 µg/mL
[18]
  Virus Neutralization Potency: 1.87 µg/mL
[19]
  Virus Neutralization Potency: 0.06 µg/mL
[20]
  Virus Neutralization Potency: 0.16 µg/mL
[21]
  Virus Neutralization Potency: 1.55 µg/mL
[22]
  Virus Neutralization Potency: 0.92 µg/mL
[23]
  Virus Neutralization Potency: 1.62 µg/mL
[24]
  Virus Neutralization Potency: 3.12 µg/mL
[25]
  Virus Neutralization Potency: 0.07 µg/mL
[26]
  Virus Neutralization Potency: 1.11 µg/mL
[27]
  Virus Neutralization Potency: 0.63 µg/mL
[28]
  Virus Neutralization Potency: 2.88 µg/mL
[29]
  Virus Neutralization Potency: 0.36 µg/mL
[30]
  Virus Neutralization Potency: 1.92 µg/mL
[31]
  Virus Neutralization Potency: 0.52 µg/mL
[32]
  Virus Neutralization Potency: 0.06 µg/mL
[33]
  Virus Neutralization Potency: 0.3 µg/mL
[34]
  Virus Neutralization Potency: 0.31 µg/mL
[35]
  Virus Neutralization Potency: 20.7 µg/mL
[36]
  Virus Neutralization Potency: 0.88 µg/mL
[37]
  Virus Neutralization Potency: 0.02 µg/mL
[38]
  Virus Neutralization Potency: 3.48 µg/mL
[39]
  Virus Neutralization Potency: 0.29 µg/mL
[40]
  Virus Neutralization Potency: 2.27 µg/mL
[41]
  Virus Neutralization Potency: 0.06 µg/mL
[42]
  Virus Neutralization Potency: 0.94 µg/mL
[43]
  Virus Neutralization Potency: 4.86 µg/mL

B5: Antibody 1.14.15-1 (antibody)
heavy: B1 heavy with V5L, E10A, K12T, K23E, I34M, W37V, T69S, F83A, T97V
light: not shown
[1]
  Virus Neutralization Potency (IC50): > 20 µg/mL
[2]
  Virus Neutralization Potency (IC50): > 20 µg/mL
[3]
  Virus Neutralization Potency (IC50): > 20 µg/mL
[4]
  Virus Neutralization Potency (IC50): > 20 µg/mL

Reference: patent publication US20220089698A1, “ANTIBODIES THAT TARGET HIV GP120 AND METHODS OF USE” (published 2022)
